In one series the test system is AML specimens vs MPCs. The series can be described thus: Fold change of RNA expression between AML specimens and MPCs. The arrangement: species or system human.
Series [1] deals with AML, MPCs, other normal hematopoietic cells and normal adult tissues, including mTECs. The series can be described thus: Classification of MAPs of interest (MOI) by decision tree on RNA expression (TSA^hi, TSA^lo, TAA, HSA). On the set-up: species or system human. Conditions: decision tree on RNA expression in AML, MPCs and normal tissues (thresholds 8.55 RPHM, FC 5).

Some entries repeat one wording, which the source may state once for all of them.

The sequence VLFGGKVSGA (listed as Homo sapiens) gave an AML/MPC in the series on AML specimens vs MPCs of 18.9. Besides, the Classific. result in series [1] is “TSA^hi (TSAs with FC of at least 5 between AML and MPCs were flagged as TSA^hi)”.

The values are drawn from patent US20230287070A1, “NOVEL TUMOR-SPECIFIC ANTIGENS FOR ACUTE MYELOID LEUKEMIA (AML) AND USES THEREOF” (UNIVERSITE DE MONTREAL, priority 2020, published 2023).
